Values quoted from earlier work in publication PMC3739823, “Structural Guided Scaffold Phage Display Libraries as a Source of Bio-Therapeutics” (PLoS ONE, 2013).

The chains behind the UniProt entries cited, without tags or fusion partners. Residues count along the entry.
UniProt P06756, 31-1048, chain 1 of 2: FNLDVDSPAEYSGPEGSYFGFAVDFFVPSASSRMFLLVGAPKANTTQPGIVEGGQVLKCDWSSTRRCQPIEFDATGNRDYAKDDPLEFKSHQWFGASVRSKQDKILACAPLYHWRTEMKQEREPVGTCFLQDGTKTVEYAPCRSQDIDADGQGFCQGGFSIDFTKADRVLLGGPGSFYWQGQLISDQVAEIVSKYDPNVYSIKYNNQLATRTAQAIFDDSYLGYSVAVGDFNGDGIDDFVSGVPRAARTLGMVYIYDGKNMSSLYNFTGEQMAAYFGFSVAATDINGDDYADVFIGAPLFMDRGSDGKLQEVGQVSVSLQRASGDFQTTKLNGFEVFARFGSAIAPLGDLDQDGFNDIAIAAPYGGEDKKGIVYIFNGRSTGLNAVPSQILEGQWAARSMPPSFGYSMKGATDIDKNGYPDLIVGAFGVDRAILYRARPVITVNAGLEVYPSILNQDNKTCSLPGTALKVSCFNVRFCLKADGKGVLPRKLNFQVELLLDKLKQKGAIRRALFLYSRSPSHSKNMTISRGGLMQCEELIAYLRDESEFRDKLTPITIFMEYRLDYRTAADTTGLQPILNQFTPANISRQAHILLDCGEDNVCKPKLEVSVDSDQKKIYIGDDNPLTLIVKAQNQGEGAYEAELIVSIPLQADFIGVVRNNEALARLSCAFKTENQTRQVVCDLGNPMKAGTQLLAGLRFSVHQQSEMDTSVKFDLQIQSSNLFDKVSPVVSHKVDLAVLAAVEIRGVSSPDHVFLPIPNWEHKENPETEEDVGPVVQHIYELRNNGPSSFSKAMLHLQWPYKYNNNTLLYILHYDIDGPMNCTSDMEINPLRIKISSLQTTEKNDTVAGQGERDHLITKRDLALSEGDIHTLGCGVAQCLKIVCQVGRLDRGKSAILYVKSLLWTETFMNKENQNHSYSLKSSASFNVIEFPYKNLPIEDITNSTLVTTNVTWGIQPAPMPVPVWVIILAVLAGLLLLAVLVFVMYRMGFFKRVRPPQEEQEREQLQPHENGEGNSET

Target: integrin αvβ6 (Homo sapiens) (UniProt P06756)
Conditions: cited from earlier work

Substance: A20FMDV2
- Kd: 1.7 nM
